Each structure is given as a SMILES string. Only a part is listed here, and it is no random draw. Calls of active or inactive are those of the source. Cut-off read from the data, not from the text of the source: active = inhibition above about 30% (passing the limit was not always enough); inconclusive = no clear call, values can overlap the other calls.

The assay concerns RmlC (dTDP-4-dehydrorhamnose 3,5-epimerase) and RmlD (dTDP-4-dehydrorhamnose reductase), coupled enzyme assay. The experiment in a line: RmlC and RmlD coupled enzyme inhibitors, primary screen, biochemical, 384-well, compound mixtures, retest (AID 1532). The following applies: 384-well mixture HTS, at 5.5 µM, stronger effect = higher value.
With `N#CC1(Nc2ccccc2)CCN(CCc2ccccc2)CC1`, the inhibition – broadly, the relative decrease from the control value, in per cent – was inactive: -15.6%.
To `O=C(NCC1(N2CCOCC2)CCCCC1)c1cc(=O)[nH]c2ccccc12` belongs inactive: 34.2%; to `CN1CCC(Nc2cccc(F)c2)CC1`, inactive: 6.29%.
For `O=C(NCC1(N2CCOCC2)CCCCC1)c1cc2ccccc2o1`, the inhibition is inactive: -5.25%.
With `O=C(OC1CN2CCC1CC2)C1c2ccccc2Oc2ccccc21` (stereo not given), the inhibition is inactive: 39.2%.
To `COc1ccc(NC2CCN(CCc3ccccc3)CC2)c(OC)c1` belongs inactive: 0.69%; to `Fc1ccccc1NC1CCN(Cc2ccccc2)CC1`, inactive: 9.27%; to `CCOc1ncccc1C(=O)NCC1(N2CCOCC2)CCCCC1`, inactive: 5.15%.
`CCC(CO)(C(=O)OC1CN2CCC1CC2)c1ccccc1` (stereo not given): the inhibition was inactive: 5.96%.
To `c1ccc(CN2CCC(Nc3ccccc3)CC2)cc1` belongs inactive: 0.06%.

Values taken from PubChem BioAssay AID1532 (PCMD, 2009).
